A mixed list of measured activities; the numbers were collected in NIAID ChemDB.

Shared fields: whole-cell or culture tests; organism: HIV-1; measure: fold resistance

Lines come from different laboratories, so protocols vary.

SMILES,mutations,strain or isolate,cells,conditions,value
CC(C)(C)NC(=O)[C@@H]1CN(C(C)(C)c2cc3cnccc3o2)CCN1C[C@@H](O)C[C@@H](Cc1ccccc1)C(=O)N[C@H]1c2ccccc2C[C@H]1O,PR-L10I S37N M46I I54V Q58E L63P I64V V77I V82F L90M I93L,K-60C (PR L10I S37N M46I I54V Q58E L63P I64V V77I V82F L90M I93L),-,-,>66.7
CC(C)=CCOc1cc(NC(=S)c2ccoc2C)ccc1Cl,RT-Y181C,UC781-RS(RT-Y181C,-,-,111
Nc1ccn([C@H]2S[C@@H](CO)C=C2F)c(=O)n1,RT-M184V,3TC-resistant (RT M184V),PBMC,-,>100
O=C1Nc2ccc(Cl)cc2[C@@](C#CC2CC2)(C(F)(F)F)N1,RT-K103N P225H,-,-,-,36.5
CC(C)CN(C[C@@H](O)[C@H](Cc1ccccc1)NC(=O)O[C@H]1CO[C@H]2OCC(F)(F)[C@H]21)S(=O)(=O)c1ccc(N)cc1,L10I G48V I54V A71V I84V L90M SQV resistant,NL4-3,MT-4,-,13
Cc1ccnc2c1NC(=O)c1cccnc1N2C1CC1,RT-V106A,RT-MDR(RT-V106A),PBMC,-,147
Cn1c2ccccc2c2c1cc(C#N)c(=O)n2-c1ccc([N+](=O)[O-])cc1,TAM2 (D67N K70R T215F K219Q),HXB2,MT-2,-,4.8
O=c1[nH]cnc2c1ncn2[C@H]1CC[C@@H](CO)O1,RT-A98G,VAU (RT-A98G),PBMC,-,0.588
Nc1cccc(CN2C(=O)N(Cc3ccc4[nH]nc(-c5ccsc5)c4c3)[C@H](Cc3ccccc3)[C@H](O)[C@@H](O)[C@H]2Cc2ccccc2)c1,PR-M46I L63P A71V V82F I84V,Ritonavir-resistant (PR M46I L63P A71V V82F I84V),MT-2,-,>156
Cc1cn([C@H]2C=C[C@@H](CO)O2)c(=O)[nH]c1=O,RT-D67N K70R T215Y,HXB2D (RT D67N K70R T215Y),MT-2,-,1.475
Cc1cn([C@H]2C[C@H](N=[N+]=[N-])[C@@H](CO)O2)c(=O)[nH]c1=O,AMD3100-resistant,NL4-3,-,-,0.000245
Nc1ccn([C@H]2CC[C@@H](CO)O2)c(=O)n1,RT-L74V,74V (RT-L74V),HT4 + HT4 LacZ-1,-,8.16
CC(C)=CCN1Cc2cccc3[nH]c(=S)n(c23)C[C@@H]1C,RT-E138K,TSAO-m3T-resistant (RT E138K),CEM,-,0.778
CC(C)=CCOc1cc(NC(=S)c2ccsc2C)ccc1Cl,RT-Y181C,UC781-RS(RT-Y181C,-,-,60
CC(C)Nc1cccnc1N1CCN(C(=O)c2cc3cc(NS(C)(=O)=O)ccc3[nH]2)CC1,RT-V106A,RT-MDR(RT-V106A),PBMC,-,44.4
CC(C)(C)OC(=O)N[C@@H](Cc1ccccc1)[C@H](O)CNC[C@@H](O)[C@H](Cc1ccc(OCC(=O)N2CCOCC2)cc1)NC(=O)OC(C)(C)C,PR-G48V I54V A71T V82A,RF,MT-2,-,12.8
Nc1ccn([C@H]2CC[C@@H](CO)O2)c(=O)n1,ddI-2-resistant,IIIB,MT-4,-,1.89
Nc1nc2c(ncn2[C@H]2CO[C@@H](CO)O2)c(=O)[nH]1,RT-M41L Y188L T215Y,RT-41L 188L 215Y,-,-,0.29
Cc1ccnc2c1NC(=O)c1cccnc1N2C1CC1,RT-A98G K103R,MVP5180 (RT A98G K103R),PBMC,-,6.6
c1cc(CN2CCCNCCNCCCNCC2)ccc1CN1CCCNCCNCCCNCC1,AMD3100-resistant,NL4-3,-,-,21.7
O=c1[nH]cnc2c1ncn2[C@H]1CC[C@@H](CO)O1,INTG-G140S,NL4-3,MT-2,-,0.3
Nc1nc2c(ncn2[C@H]2CO[C@@H](CO)O2)c(=O)[nH]1,RT-M41L K70R T215Y K219Q,-,MT-2,-,1.22
Cc1ccnc2c1NC(=O)c1cccnc1N2C1CC1,DS-resistant,NL4-3,-,-,0.333
CC(C)Oc1ccc(Cc2ccccc2)cc1C(=O)CC(=O)C(=O)O,INTG-S153 N155S,-,-,-,47
CC(=O)Oc1ccc(/C=C/C(=O)O[C@H](C(=O)O)[C@H](OC(=O)/C=C/c2ccc(OC(C)=O)c(OC(C)=O)c2)C(=O)O)cc1OC(C)=O,AMD2763-resistant,NL4-3,MT-4,-,>11.9
O=C(NCc1ccc(F)cc1)c1nc(N2CCCCS2(=O)=O)c2cccnc2c1O,INTG-T66I,-,-,-,1
Cc1cn([C@H]2C[C@H](N=[N+]=[N-])[C@@H](CO)O2)c(=O)[nH]c1=O,INTG-G140S,NL4-3,MT-2,-,1.5
Nc1nc(NC2CC2)c2ncn([C@H]3C=C[C@@H](CO)C3)c2n1,RT-D67N K70R T215Y,HXB2D (RT D67N K70R T215Y),MT-2,-,2.33
CC(C)=CCN1c2cc(Cl)cc3[nH]c(=S)n(c23)C[C@@H]1C,RT-L74V Y181C,-,MT-4,-,>30
S=C(NCCc1ccccn1)Nc1ccc(Br)cn1,RT-K103N Y181C,A17,PBMC,-,>14300
CC(C)=CCN1Cc2cc(Cl)cc3[nH]c(=S)n(c23)C[C@@H]1C,RT-A98G Y181C,BCF03,PBMC,-,>312.5
CC(C)CN(C[C@@H](O)[C@H](Cc1ccccc1)NC(=O)O[C@H]1CCOC1)S(=O)(=O)c1ccc(N)cc1,L10F V32I M46I I45M A71V I84V APV resistant,NL4-3,MT-4,-,>13
CC(C)(C)C(=O)c1sc(C(=O)NCCc2ccccc2)c(O)c1O,INTG-N155H,-,-,-,1
Cc1occc1C(=S)Nc1ccc(Cl)c(/C=N/OC(C)(C)C)c1,RT-Y181C,UC781-RS(RT-Y181C,-,-,4.5
Nc1ccn([C@@H]2CC[C@H](CO)O2)c(=O)n1,RT-M184V,184V (RT-M184V),HT4 + HT4 LacZ-1,-,45
COc1ccccc1C(=O)Nc1ccc(Cl)c(C(=O)OC(C)C)c1,RT-Y181C,UC781-RS(RT-Y181C,-,-,7.77
O=C1O[C@H]2[C@@H]3OC(=O)c4cc(O)c(O)c(O)c4-c4c(cc(O)c(O)c4O)C(=O)OC[C@H]2O[C@@H](OC(=O)c2cc(O)c(O)c(O)c2)[C@@H]3OC(=O)c2cc(O)c(O)c3c2[C@@H]2C1=CC(=O)[C@](O)(O3)C2(O)O,RT-Y181C,NNRTI-resistant (RT Y181C) ARP1013,MAGI,-,2.84
COC(=O)N[C@H](C(=O)N[C@@H](Cc1ccccc1)[C@@H](O)CN(Cc1ccc(-c2ccccn2)cc1)NC(=O)[C@@H](NC(=O)OC)C(C)(C)C)C(C)(C)C,L10F M46I I54V V82A LPV resistant,NL4-3,MT-4,-,8
Nc1nc2c(ncn2[C@H]2CO[C@@H](CO)O2)c(=O)[nH]1,RT-M184V T215Y K219Q,-,-,-,~1.8
Cc1cn([C@H]2C[C@H](N=[N+]=[N-])[C@@H](CO)O2)c(=O)[nH]c1=O,RT-W88C,HX88C (RT-W88C),HT4LACZ-1 + HT4 LacZ-1,-,0.7
CC(C)C[C@@H]1[C@H](O)[C@@H](O)[C@@H](CC(C)C)N(Cc2cccc(C(=O)Nc3nc4ccccc4[nH]3)c2)C(=O)N1Cc1cccc(C(=O)Nc2nc3ccccc3[nH]2)c1,PR-I84V,RF,MT-2,3 d,0.339
CCCc1cc(=O)oc2c3c(c4c(c12)OC(C)(C)C=C4)O[C@@H](C)[C@H](C)[C@@H]3O,RT-Y181C,UC781-RS(RT-Y181C,-,-,<0.3
Nc1nc2c(ncn2[C@H]2CC[C@@H](CO)O2)c(=O)[nH]1,RT-E138K,TSAO-m3T-resistant (RT E138K),CEM,-,0.7
CC=CCOc1cc(NC(=S)c2ccoc2C)ccc1OC,RT-Y181C,UC781-RS(RT-Y181C,-,-,2.67
Nc1ccn([C@@H]2O[C@H](CO)C=C2F)c(=O)n1,RT-M184V,3TC-resistant (RT M184V),PBMC,-,0.2

The last 4 rows once more:

CCCc1cc(=O)oc2c3c(c4c(c12)OC(C)(C)C=C4)O[C@@H](C)[C@H](C)[C@@H]3O ; mutations: RT-Y181C ; strain or isolate: UC781-RS(RT-Y181C ; value: <0.3
Nc1nc2c(ncn2[C@H]2CC[C@@H](CO)O2)c(=O)[nH]1 ; mutations: RT-E138K ; strain or isolate: TSAO-m3T-resistant (RT E138K) ; cells: CEM ; value: 0.7
CC=CCOc1cc(NC(=S)c2ccoc2C)ccc1OC ; mutations: RT-Y181C ; strain or isolate: UC781-RS(RT-Y181C ; value: 2.67
Nc1ccn([C@@H]2O[C@H](CO)C=C2F)c(=O)n1 ; mutations: RT-M184V ; strain or isolate: 3TC-resistant (RT M184V) ; cells: PBMC ; value: 0.2

Fold resistance has wild type as its base. An empty or dashed field is not shown.